In US20240124545A1, “COMPOSITIONS AND METHODS RELATING TO THE TREATMENT OF DISEASES” (ILC THERAPEUTICS LIMITED, priority 2021, published 2024):

Tested on: HIV-1 LAI
Test: HIV-1 LAI infectivity assay with β-galactosidase readout (Experiment 5)
Type: cell-based, human immunodeficiency virus type 1 (HIV-1) LAI strain
Settings: for HIV-1 Infectivity in HeLa-CD4-βgal cells (% vehicle): 48 hours, mean of duplicates; for HIV Infectivity in HeLa CD4 βgal cells (β-galactosidase units): individual values

Interferon-beta 1a [Sample C]
HIV-1 Infectivity in HeLa-CD4-βgal cells (% vehicle) (0.0001 ng/mL): 104.0 % vehicle
HIV Infectivity in HeLa CD4 βgal cells (β-galactosidase units) (0.0001 ng/mL): 1,061,587 RLU and 1,054,513 RLU
HIV-1 Infectivity in HeLa-CD4-βgal cells (% vehicle) (0.001 ng/mL): 86.6 % vehicle
HIV Infectivity in HeLa CD4 βgal cells (β-galactosidase units) (0.001 ng/mL): 866,038 RLU and 897,100 RLU
HIV-1 Infectivity in HeLa-CD4-βgal cells (% vehicle) (0.01 ng/mL): 93.5 % vehicle
HIV Infectivity in HeLa CD4 βgal cells (β-galactosidase units) (0.01 ng/mL): 931,295 RLU and 971,503 RLU
HIV-1 Infectivity in HeLa-CD4-βgal cells (% vehicle) (0.1 ng/mL): 95.3 % vehicle
HIV Infectivity in HeLa CD4 βgal cells (β-galactosidase units) (0.1 ng/mL): 875,861 RLU and 1,062,570 RLU
HIV-1 Infectivity in HeLa-CD4-βgal cells (% vehicle) (1 ng/mL): 92.7 % vehicle
HIV Infectivity in HeLa CD4 βgal cells (β-galactosidase units) (1.0 ng/mL): 854,623 RLU and 1,031,833 RLU
HIV-1 Infectivity in HeLa-CD4-βgal cells (% vehicle) (10 ng/mL): 87.4 % vehicle
HIV Infectivity in HeLa CD4 βgal cells (β-galactosidase units) (10 ng/mL): 863,734 RLU and 915,402 RLU
HIV-1 Infectivity in HeLa-CD4-βgal cells (% vehicle) (100 ng/mL): 47.9 % vehicle
HIV Infectivity in HeLa CD4 βgal cells (β-galactosidase units) (100 ng/mL): 479,228 RLU and 500,227 RLU
HIV-1 Infectivity in HeLa-CD4-βgal cells (% vehicle) (1,000 ng/mL): 30.8 % vehicle
HIV Infectivity in HeLa CD4 βgal cells (β-galactosidase units) (1,000 ng/mL): 301,335 RLU and 330,945 RLU
HIV-1 Infectivity in HeLa-CD4-βgal cells (% vehicle) (10,000 ng/mL): 8.9 % vehicle
HIV Infectivity in HeLa CD4 βgal cells (β-galactosidase units) (10,000 ng/mL): 94,978 RLU and 94,195 RLU

Where “and” joins values, the source holds several entries; their conditions need not be identical. Equal entries are not always repeated.
